Laboratory results: PubChem BioAssay AID504761 (Drosophila RNAi Screening Center, 2011)
Aim: 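Genome-wide fly cell screen for genes dengue virus requires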 (primary screen). Cells: D.Mel-2 cells from Drosophila. Reagent: long dsRNA against Drosophila genes. Treatment: infection with dengue virus type 2; dose and infection time not stated. Measured: 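Cells stained for dengue envelope protein and imaged; percent of infected cells per well on duplicate plates, ranked by infection, with stained nuclei counted for cell number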. Scale: infection score: higher = more virus-infected cells; cell count: higher = more cells in the well. Rule for the call: 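Very low infection ranking in both replicate wells (chance probability at most 0.065), then a retest showing infection dropped 1.5-fold or more at p below 0.05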. Calls: active = confirmed: knock-down lowers infection; inactive = not picked or not confirmed.
The screen tested about 22,000 reagents; shown is an unselected part of those that have a named target and a result. Of all reagents, 116 (0.52%) are marked active. 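Calls depend on retest data that are not deposited; infection was ranked per plate without normalising between plates; the unit of the infection score is not given.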 The raw values are shown without normalisation. Unmarked entries are inactive. A plus sign joins genes that one reagent is predicted to hit. No sequences are given here. Not given: the amount of reagent, the time to read-out.

| gene knocked down | DRSC id | infection score, replicate 1 | infection score, replicate 2 | cell count, replicate 1 | cell count, replicate 2 |
| --- | --- | --- | --- | --- | --- |
| Hasp (Hig-anchoring scaffold protein) | DRSC02022 | 8.68 | 29.8 | 6842 | 5930 |
| eEF1alpha1 (eukaryotic translation elongation factor 1 alpha 1) | DRSC07421 | 3.54 | 3.71 | 4067 | 4203 |
| eEF1alpha1 (eukaryotic translation elongation factor 1 alpha 1) | DRSC25133 | 0.77 | 2.13 | 4526 | 4656 |
| Men (Malic enzyme) | DRSC12924 | 11.6 | 8.28 | 5790 | 4962 |
| Men (Malic enzyme) | DRSC16738 | 9.87 | 6.09 | 6031 | 6107 |
| Men (Malic enzyme) | DRSC22694 | 4.02 | 6.18 | 6642 | 6080 |
| PH4alphaNE1 (prolyl-4-hydroxylase-alpha NE1) | DRSC16546 | 3.62 | 3.11 | 5995 | 6371 |
| PH4alphaNE1 (prolyl-4-hydroxylase-alpha NE1) | DRSC26942 | 2.41 | 2.72 | 6345 | 6468 |
| Doa (Darkener of apricot) | DRSC13892 | 3.08 | 1.51 | 6788 | 6304 |
| Doa (Darkener of apricot) | DRSC13893 | 0.99 | 0.49 | 6844 | 6377 |
| Doa (Darkener of apricot) | DRSC13896 | 2.79 | 2.15 | 5441 | 4416 |
| Doa (Darkener of apricot) | DRSC13897 | 6.68 | 2.41 | 6193 | 5771 |
| Doa (Darkener of apricot) | DRSC16650 | 2.76 | 2.69 | 6201 | 6279 |
| Doa (Darkener of apricot) | DRSC26631 | 4.79 | 8.75 | 5716 | 6652 |
| GstD11 (Glutathione S transferase D11) | DRSC15251 | 9.53 | 16.4 | 6558 | 6079 |
| GstD11 (Glutathione S transferase D11) | DRSC26490 | 7.94 | 1.57 | 6338 | 5853 |
| Lcp1 (Larval cuticle protein 1) | DRSC07455 | 4.73 | 10.5 | 6640 | 6810 |
| zetaTry (zetaTrypsin) | DRSC07720 | 9.72 | 16 | 5863 | 6035 |
| Pop1 (POP1 ribonuclease P/MRP subunit) | DRSC17739 | 31.2 | 4.08 | 571 | 6647 |
| CG5194 | DRSC10492 | 7.19 | 5.51 | 6298 | 6909 |
| CG30393 | DRSC04253 | 7.34 | 9.21 | 6482 | 6429 |
| CG30393 | DRSC24833 | 3.4 | 2.6 | 6639 | 6203 |
| uif (uninflatable) | DRSC03427 | – | 5.67 | 706 | 2275 |
| RpL13 (Ribosomal protein L13) | DRSC03416 | 6.51 | 9.07 | 4883 | 3749 |
| mbt (mushroom bodies tiny) | DRSC23020 | 0.85 | 2.39 | 6925 | 7102 |
| mbt (mushroom bodies tiny) | DRSC25818 | 4.2 | 10.9 | 6613 | 6301 |
| CG31933 | DRSC00457 | 3.23 | 2.53 | 6590 | 7063 |
| Drsl3 (Drosomycin-like 3) | DRSC22630 | 3.2 | 5.21 | 6528 | 6530 |
| Drsl3 (Drosomycin-like 3) | DRSC29261 | 29.8 | 16.1 | 6131 | 3569 |

The list goes on (4 carried over from the part before).
| gene knocked down | DRSC id | infection score, replicate 1 | infection score, replicate 2 | cell count, replicate 1 | cell count, replicate 2 |
| --- | --- | --- | --- | --- | --- |
| mbt (mushroom bodies tiny) | DRSC25818 | 4.2 | 10.9 | 6613 | 6301 |
| CG31933 | DRSC00457 | 3.23 | 2.53 | 6590 | 7063 |
| Drsl3 (Drosomycin-like 3) | DRSC22630 | 3.2 | 5.21 | 6528 | 6530 |
| Drsl3 (Drosomycin-like 3) | DRSC29261 | 29.8 | 16.1 | 6131 | 3569 |
| CG42372 + CG30100 | DRSC05602 | 0.68 | 0.67 | 6310 | 3896 |
| Eb1 | DRSC05016 | 20.5 | 18.2 | 6079 | 6048 |
| CG8197 | DRSC07105 | 5.97 | 4.6 | 5743 | 6263 |
| CG5568 | DRSC10518 | 10.4 | 5.58 | 6631 | 6682 |
| CG5568 | DRSC22816 | 2.48 | 2.28 | 5764 | 6329 |
| CG5568 | DRSC24887 | 2.68 | 6.64 | 6822 | 6338 |
| CG2747 | DRSC15450 | 3.57 | 6.81 | 6507 | 6642 |
| Spn88Ea (Serpin 88Ea) | DRSC17061 | 2.74 | 11.4 | 5647 | 5674 |
| Spn88Ea (Serpin 88Ea) | DRSC27907 | 12.6 | 8.07 | 5957 | 6496 |
| Snx27 (Sorting nexin 27) | DRSC17786 | 11.4 | 10.7 | 6142 | 6271 |
| Snx27 (Sorting nexin 27) | DRSC18282 | 7.98 | 5.42 | 6595 | 6846 |
| Snx27 (Sorting nexin 27) | DRSC18284 | 5.73 | 14.7 | 6452 | 6572 |
| CG33259 | DRSC10854 | 0.83 | 1.07 | 6237 | 6348 |
| CG33259 | DRSC29910 | 16.4 | 16.2 | 6373 | 6201 |
| Naus (Nausicaa) | DRSC06011 | 8.65 | 8.93 | 6437 | 6308 |
| Naus (Nausicaa) | DRSC06469 | 7.82 | 5.55 | 6383 | 6216 |
| Naus (Nausicaa) | DRSC23606 | 3.64 | 1.36 | 6214 | 6114 |
| Ssrp (Structure specific recognition protein) | DRSC04658 | 9.91 | 24.7 | 4359 | 4124 |
| Ssrp (Structure specific recognition protein) | DRSC29959 | 17.5 | 24.8 | 5858 | 5820 |
| nsr (novel spermatogenesis regulator) | DRSC04427 | 2.42 | 9.98 | 6375 | 5351 |
| nsr (novel spermatogenesis regulator) | DRSC22806 | 1.57 | 7.59 | 6036 | 6495 |
| RpS3 (Ribosomal protein S3) | DRSC16838 | 3.41 | 8.52 | 1967 | 1455 |
| CG11878 | DRSC14422 | 9.27 | 6.33 | 3971 | 7019 |
| CG11878 | DRSC24563 | 1.18 | 3.26 | 6945 | 6870 |
| Meltrin | DRSC16274 | 4.11 | 3.46 | 6669 | 6599 |
| Meltrin | DRSC21693 | 0.5 | 1.51 | 6452 | 7092 |
| SmydA-6 (SET and MYND domain containing, arthropod-specific, member 6) | DRSC07341 | 2.84 | 14.7 | 6306 | 5530 |
| CG42284 | DRSC22094 | 3.74 | 1.5 | 6745 | 6679 |
| CG42284 | DRSC22342 | 1 | 4.14 | 6374 | 6744 |
